Measured values from several laboratories, pooled; numbers as filed in NIAID ChemDB.

All rows: growth or infection tests; species: HIV-1; cell line: CEM + CEM-SS; read-out: EC50

Neighbouring rows are from separate reports. ECn is the concentration giving n% inhibition of infection, replication or growth.

{"compound": "C/C=C/CSc1cc(NC(=S)c2ccsc2C)ccc1Cl", "strain": "4XAZT+L100I", "method": "cytopathic effect / XTT", "value": "1 µM"}
{"compound": "CN1C(=O)N=S(=O)(c2ccccc2)c2ccccc21", "strain": "IIIB", "method": "cytopathic effect / XTT", "value": ">160 µM"}
{"compound": "Cc1ccnc2c1NC(=O)c1cccnc1N2C1CC1", "strain": "NL4-3 (RT Y181C)", "changes": "RT-Y181C", "method": "cytopathic effect / XTT", "value": "1.3 µM"}
{"compound": "CC(C)=CCOc1cc(NC(=S)c2ccoc2C)ccc1Cl", "strain": "IIIB", "method": "XTT", "value": "0.005 µM"}
{"compound": "O=S(=O)(c1ccccc1)c1ccccc1", "strain": "UC38-R(RT-Y181C", "changes": "RT-Y181C", "method": "cytopathic effect / XTT", "value": "5.3 µM"}
{"compound": "CCCc1cc(=O)oc2c3c(c4c(c12)OC(C)(C)C=C4)O[C@@H](C)[C@H](C)[C@@H]3O", "strain": "RF", "method": "cytopathic effect / XTT", "value": "0.7 µM"}
{"compound": "Cc1occc1C(=S)Nc1ccc(Cl)c(/C=N/OC(C)(C)C)c1", "strain": "4xAZT", "method": "cytopathic effect / XTT", "value": "0.04 µM"}
{"compound": "Cc1ccnc2c1NC(=O)c1cccnc1N2C1CC1", "strain": "NL4-3", "changes": "RT-Y188C", "method": "cytopathic effect / XTT", "value": "3.2 µM"}
{"compound": "Fc1cccc(F)c1C1SCc2nc3ccccc3n21", "strain": "KELL", "method": "cytopathic effect / XTT", "value": "2.33 µM"}
{"compound": "CC(C)=CCOc1cc(NC(=S)c2ccsc2C)ccc1Cl", "strain": "Calanolide A-resistant (RT T139I)", "changes": "RT-T139I", "method": "XTT", "value": "0.03 µM"}
{"compound": "CCc1c(Sc2ccccn2)n(COCc2ccccc2)c(=O)[nH]c1=O", "strain": "NL4-3", "changes": "RT-Y188C", "method": "cytopathic effect / XTT", "value": "2.4 µM"}
{"compound": "Cc1cn([C@H]2C[C@H](N=[N+]=[N-])[C@@H](CO)O2)c(=O)[nH]c1=O", "strain": "IIIB", "method": "cytopathic effect / XTT", "value": "0.004 µM"}
{"compound": "CCCc1cc(=O)oc2c3c(c4c(c12)OC(C)(C)C=C4)O[C@H](C)[C@@H](C)[C@@H]3O", "strain": "Calanolide A-resistant (RT T139I)", "changes": "RT-T139I", "method": "XTT", "value": ">27 µM"}
{"compound": "CN1N=C(N)c2cn([C@@H]3O[C@H](COP(=O)(O)O)[C@@H](O)[C@H]3O)c3ncnc1c23", "strain": "205", "method": "XTT", "value": ">2.8 µM"}
{"compound": "Cc1cc(-c2ccc(N=Nc3c(S(=O)(=O)O)cc4cc(S(=O)(=O)O)cc(N)c4c3O)c(C)c2)ccc1N=Nc1c(S(=O)(=O)O)cc2cc(S(=O)(=O)O)cc(N)c2c1O", "strain": "RF", "method": "cytopathic effect / XTT", "value": "48 µM"}
{"compound": "CC(C)=CCN1Cc2cc(Cl)cc3[nH]c(=S)n(c23)C[C@@H]1C", "strain": "IIIB", "method": "cytopathic effect / MTT", "value": "0.067 µM"}
{"compound": "Cc1cn([C@H]2C[C@H](N=[N+]=[N-])[C@@H](CO)O2)c(=O)[nH]c1=O", "strain": "NL4-3", "changes": "RT-T139I", "method": "XTT", "value": "0.003 µM"}
{"compound": "CC1=C(C(=O)Nc2ccc(Cl)c(C(=O)OC(C)C)c2)SCCO1", "strain": "UC38-R(RT-Y181C", "changes": "RT-Y181C", "method": "cytopathic effect / XTT", "value": "1.2 µM"}
{"compound": "O=S1(c2ccccc2)=NC(=S)Nc2ccccc21", "strain": "205", "method": "cytopathic effect / XTT", "value": "1.75 µM"}
{"compound": "Cc1cn([C@H]2C[C@H](N=[N+]=[N-])[C@@H](CO)O2)c(=O)[nH]c1=O", "strain": "NL4-3", "changes": "RT-V108I", "method": "cytopathic effect / XTT", "value": "0.008 µM"}
{"compound": "CCc1c(C(=O)c2cc(C)cc(C)c2)n(CC2CC=CC2)c(=O)[nH]c1=O", "strain": "NL4-3", "changes": "Y188C", "method": "cytopathic effect / XTT", "value": "0.06 µM"}
{"compound": "Cc1cn([C@H]2C[C@H](N=[N+]=[N-])[C@@H](CO)O2)c(=O)[nH]c1=O", "strain": "C", "method": "cytopathic effect / XTT", "value": "0.0002 µM"}
{"compound": "Cc1c(Sc2ccccc2)n(COCCO)c(=O)[nH]c1=O", "strain": "IIIB HEPT-resistant (RT P236L)", "changes": "RT-P236L", "method": "cytopathic effect / XTT", "value": ">325 µM"}

For reference, 2 entries again:

CCCc1cc(=O)oc2c3c(c4c(c12)OC(C)(C)C=C4)O[C@@H](C)[C@H](C)[C@@H]3O ; strain: RF ; method: cytopathic effect / XTT ; value: 0.7 µM
O=S(=O)(c1ccccc1)c1ccccc1 ; strain: UC38-R(RT-Y181C ; changes: RT-Y181C ; method: cytopathic effect / XTT ; value: 5.3 µM